Anti-infective test results gathered from many reports (values: NIAID ChemDB through PubChem).

All rows: tests in culture; organism: Aspergillus fumigatus

An empty or dashed field is not shown. Percent inhibition refers to the dose given; in toxicity tests it is the harm to the cells. A number after MIC or MFC names an inhibition level or a share of isolates. Two numbers with a dash give a range or band. Zone: diameter of growth inhibition. Rows are shuffled and stem from different studies.

smiles | endpoint | strain | method | tested at | mutations | result
CC(=O)C1=NN(c2ccccc2)C2=Nc3nccc(-c4nn(-c5ccccc5)cc4-c4ccc([N+](=O)[O-])cc4)c3C(=O)C12 | zone | - | agar diffusion / agar | 1.25 mg/mL | - | 6 mm
Cc1ccc(/C=C/C(=O)OC2CCN(CC(O)(Cn3cncn3)c3ccc(F)cc3F)CC2)cc1 | MIC80 | 0504656 | broth dilution | - | - | 0.518 µM
CCC(C)CCCCCCCCCCC(=O)N[C@H]1C[C@@H](O)[C@@H]([n+]2cc[nH]c2)NC(=O)C2[C@@H](O)[C@@H](C)CN2C(=O)C(CO)NC(=O)C([C@H](O)C(O)c2ccc(O)cc2)NC(=O)NC(=O)[C@@H]2C[C@@H](O)CN2C(=O)[C@H]([C@@H](C)O)NC1=O | zone | AF-1 | agar | 5 mg/mL | - | 30 mm
CC1=CC[C@@H]2[C@H](C1)C2(C)C | MLC | F05 | - | - | - | 0.64 µg/mL
CCC(C)n1ncn(-c2ccc(N3CCN(c4ccc(OC[C@H]5CO[C@](Cn6cncn6)(c6ccc(Cl)cc6Cl)O5)cc4)CC3)cc2)c1=O | inhibition | AF293 | broth dilution | 1 µg/mL | sakA | 99.45%
C[C@H]1[C@H](O)[C@@H](C)/C=C/C=C/C=C/C=C/C=C/C=C/C=C/[C@H](O[C@@H]2O[C@H](C)[C@@H](O)[C@H](N)[C@@H]2O)C[C@@H]2O[C@](O)(C[C@@H](O)C[C@@H](O)CC[C@H](O)[C@@H](O)C[C@@H](O)CC(=O)O[C@H]1C)C[C@H](O)[C@H]2C(=O)O | Geometric mean MIC | 50 isolates | - | - | - | 0.38 µg/mL
Cc1ccc2nc(Cl)c(C3C4=C(CCCC4=O)N(c4cccnc4)C(N)C3C#N)cc2c1 | MIC99 | MTCC 3008 | broth dilution | - | - | >1000 µg/mL
C[C@@H](N1CCN(Cc2cn(Cc3ccc(Cl)cc3Cl)c3c(F)cccc23)CC1)[C@](O)(Cn1cncn1)c1ccc(F)cc1F | MIC80 | ATCC 16424 | resazurin | - | - | 8 µg/mL
C[C@H]1[C@H](O)[C@@H](C)/C=C/C=C/C=C/C=C/C=C/C=C/C=C/[C@H](O[C@@H]2O[C@H](C)[C@@H](O)[C@H](N)[C@@H]2O)C[C@@H]2O[C@](O)(C[C@@H](O)C[C@@H](O)CC[C@H](O)[C@@H](O)C[C@@H](O)CC(=O)O[C@H]1C)C[C@H](O)[C@H]2C(=O)O | MFC90 | 35 isolates | - | - | - | 16 µg/mL
O=C(O)Cc1ccc(OCC(O)(Cn2cncn2)c2ccc(F)cc2F)cc1 | MIC50 | ATCC 46645 | broth dilution | - | - | 128 µg/mL
CCC(C)CCCCCCCCCCC(=O)N[C@H]1C[C@@H](O)[C@@H](N=[N+]=[N-])NC(=O)C2[C@@H](O)[C@@H](C)CN2C(=O)C(CO)NC(=O)C([C@H](O)C(N=[N+]=[N-])c2ccc(O)cc2)NC(=O)NC(=O)[C@@H]2C[C@@H](O)CN2C(=O)[C@H]([C@@H](C)O)NC1=O | zone | AF-1 | agar | 5 mg/mL | - | 8–25 mm
CC1(O)OC(=O)C(c2ccc(OCC(O)(Cn3cncn3)c3ccc(F)cc3F)cc2)=C1c1ccc(F)cc1F | MIC50 | ATCC 46645 | broth dilution | - | - | 16 µg/mL
C[C@H]1[C@H](O)[C@@H](C)/C=C/C=C/C=C/C=C/C=C/C=C/C=C/[C@H](O[C@@H]2O[C@H](C)[C@@H](O)[C@H](N)[C@@H]2O)C[C@@H]2O[C@](O)(C[C@@H](O)C[C@@H](O)CC[C@H](O)[C@@H](O)C[C@@H](O)CC(=O)O[C@H]1C)C[C@H](O)[C@H]2C(=O)O | MIC99 | NCIM 902 | broth dilution / absorbance | - | - | 0.39 µM
C[C@@H](N1CCN(Cc2cn(Cc3ccc(Cl)cc3)c3ccccc23)CC1)[C@](O)(Cn1cncn1)c1ccc(F)cc1F | MIC80 | ATCC 16424 | resazurin | - | - | 16 µg/mL
C[C@@H](c1ncncc1F)[C@](O)(Cn1cncn1)c1ccc(F)cc1F | MIC50 | - | broth dilution | - | - | 0.25 µg/mL
O=C(Cc1ccccc1)OC1CCN(CC(O)(Cn2cncn2)c2ccc(F)cc2F)CC1 | MIC80 | 0504656 | broth dilution | - | - | 2.192 µM
COc1cc(C2=C(c3ccc(F)cc3F)COC2=O)ccc1OCC(O)(Cn1cncn1)c1ccc(F)cc1F | MIC50 | ATCC 46645 | broth dilution | - | - | 8 µg/mL
C[C@@H](N1CCN(Cc2cn(Cc3ccc(Cl)cc3Cl)c3ccc(C#N)cc23)CC1)[C@](O)(Cn1cncn1)c1ccc(F)cc1F | MIC80 | ATCC 16424 | resazurin | - | - | 2 µg/mL
CC(C)C(=O)OC1CCN(CC(O)(Cn2cncn2)c2ccc(F)cc2F)CC1 | MIC80 | 0504656 | broth dilution | - | - | 2.45 µM
C[C@@H](N1CCN(Cc2cn(Cc3ccc(F)cc3F)c3c(C#N)cccc23)CC1)[C@](O)(Cn1cncn1)c1ccc(F)cc1F | MIC80 | ATCC 16424 | resazurin | - | - | 32 µg/mL
COc1ccc(C(O)Cn2ccnc2)cc1 | inhibition | - | broth dilution | 100 µg/mL | - | 73%
N#CC1C(c2cc3cc(Cl)ccc3nc2Cl)C2=C(CCCC2=O)N(c2cccnc2)C1N | MIC99 | MTCC 3008 | broth dilution | - | - | 500 µg/mL
CCC(C)CCCCCCCCCCC(=O)N[C@H]1C[C@@H](O)[C@@H](OC)NC(=O)C2[C@@H](O)[C@@H](C)CN2C(=O)C(CO)NC(=O)C([C@H](O)C(OC)c2ccc(O)cc2)NC(=O)NC(=O)[C@@H]2C[C@@H](O)CN2C(=O)[C@H]([C@@H](C)O)NC1=O | zone | AF-1 | agar | 2 mg/mL | - | 30 mm
OC(Cn1cncn1)c1ccc(F)cc1F | inhibition | - | broth dilution | 80 µg/mL | - | 38%
CCC(C)n1ncn(-c2ccc(N3CCN(c4ccc(OC[C@H]5CO[C@](Cn6cncn6)(c6ccc(Cl)cc6Cl)O5)cc4)CC3)cc2)c1=O | MFC50 | 19 isolates | - | - | - | 1 µg/mL
C[C@@H](N1CCN(Cc2cn(Cc3ccc(F)cc3F)c3ccccc23)CC1)[C@](O)(Cn1cncn1)c1ccc(F)cc1F | MIC80 | ATCC 16424 | resazurin | - | - | 4 µg/mL
CCN1CCC(O)(/C=C/c2ccc(Cl)cc2)C(C(=O)/C=C/c2ccc(Cl)cc2)C1 | Mean MIC | 20 strains | - | - | - | 5.54 µg/mL
COc1cc(O)c2c(c1)C(=O)c1c(cc3c(c1O)-c1c(cc(C)c(C(=O)NC(CO)C(=O)O)c1O)[C@H](OC1OC(C)C(O)C(OC4OCC(O)C(O)C4O)C1O)C3O)C2=O | Geometric mean MFC | 35 isolates | - | - | - | 86.1 µg/mL
O=C(/C=C/c1cccc(Br)c1)OC1CCN(CC(O)(Cn2cncn2)c2ccc(F)cc2F)CC1 | MIC80 | 0504656 | broth dilution | - | - | 1.831 µM
COc1cc(/C=C2\SC(=S)NC2=O)cc(OC)c1OCC(O)(Cn1cncn1)c1ccc(F)cc1F | MIC50 | ATCC 46645 | broth dilution | - | - | 16 µg/mL
COC(=O)C1C(c2cc3cc(C)ccc3nc2Cl)C2=C(CCCC2=O)N(c2cccnc2)C1N | MIC99 | MTCC 3008 | broth dilution | - | - | >1000 µg/mL
C[C@H]1[C@H](O)[C@@H](C)/C=C/C=C/C=C/C=C/C=C/C=C/C=C/[C@H](O[C@@H]2O[C@H](C)[C@@H](O)[C@H](N)[C@@H]2O)C[C@@H]2O[C@](O)(C[C@@H](O)C[C@@H](O)CC[C@H](O)[C@@H](O)C[C@@H](O)CC(=O)O[C@H]1C)C[C@H](O)[C@H]2C(=O)O | Mean MIC | 50 strains | - | - | - | 0.63 µg/mL
CCC(C)CC(C)CCCCCCCCC(=O)N[C@H]1C[C@@H](O)[C@H](NCCN)NC(=O)[C@@H]2[C@@H](O)CCN2C(=O)[C@H]([C@H](O)CCN)NC(=O)[C@H]([C@H](O)[C@@H](O)c2ccc(O)cc2)NC(=O)[C@@H]2C[C@@H](O)CN2C(=O)[C@H]([C@@H](C)O)NC1=O | Geometric mean MEC | 26 isolates | - | - | - | 0.31 µg/mL
CCC(C)n1ncn(-c2ccc(N3CCN(c4ccc(OC[C@H]5CO[C@](Cn6cncn6)(c6ccc(Cl)cc6Cl)O5)cc4)CC3)cc2)c1=O | MLC90 | - | - | - | - | 2 µg/mL
CC(O)Cn1cc(CN2CCN([C@H](C)[C@](O)(Cn3cncn3)c3ccc(F)cc3F)CC2)c2cccc(Cl)c21 | MIC80 | ATCC 16424 | resazurin | - | - | 128 µg/mL
O=C1OCC(c2ccccc2)=C1c1ccc(OCC(O)(Cn2cncn2)c2ccc(F)cc2F)cc1 | MIC50 | ATCC 46645 | broth dilution | - | - | 4 µg/mL
CCCCCOc1ccc(-c2ccc(-c3ccc(C(=O)N[C@H]4C[C@@H](O)[C@@H](O)NC(=O)[C@@H]5[C@@H](O)[C@@H](C)CN5C(=O)[C@H]([C@H](C)O)NC(=O)[C@H]([C@H](O)[C@@H](O)c5ccc(O)cc5)NC(=O)[C@@H]5C[C@@H](O)CN5C(=O)[C@H]([C@H](C)O)NC4=O)cc3)cc2)cc1 | MFC | 92-245 | - | - | - | >50 µg/mL
O=c1cc(CO)occ1O | MIC99 | AF293 | agar | - | - | >12800 µM
O=C(Cn1cncn1)c1ccc([N+](=O)[O-])cc1 | inhibition | - | broth dilution | 80 µg/mL | - | 12%
CCC(C)CCCCCCCCCCC(=O)N[C@H]1C[C@@H](O)[C@@H](Sc2ccccc2)NC(=O)C2[C@@H](O)[C@@H](C)CN2C(=O)C(CO)NC(=O)C([C@H](O)C(Sc2ccccc2)c2ccc(O)cc2)NC(=O)NC(=O)[C@@H]2C[C@@H](O)CN2C(=O)[C@H]([C@@H](C)O)NC1=O | zone | AF-1 | agar | 5 mg/mL | - | 17 mm
O=C(/C=C/c1ccccc1Cl)OC1CCN(CC(O)(Cn2cncn2)c2ccc(F)cc2F)CC1 | MIC80 | 0504656 | broth dilution | - | - | 1.991 µM
Cc1ccc(C(C)C)cc1O | MLC | ATCC 46645 | - | - | - | 0.32 µg/mL
C[C@@H](c1ncncc1F)[C@](O)(Cn1cncn1)c1ccc(F)cc1F | MFC90 | 94 isolates | - | - | - | 2 µg/mL
CCC(C)CCCCCCCCCCC(=O)N[C@H]1C[C@@H](O)[C@@H](S(=O)(=O)CC(=O)OC)NC(=O)C2[C@@H](O)[C@@H](C)CN2C(=O)C(CO)NC(=O)C([C@H](O)C(O)c2ccc(O)cc2)NC(=O)NC(=O)[C@@H]2C[C@@H](O)CN2C(=O)[C@H]([C@@H](C)O)NC1=O | zone | AF-1 | agar | 2 mg/mL | - | 21 mm
O=Cc1ccc(OCC(O)(Cn2cncn2)c2ccc(F)cc2F)cc1 | MIC50 | ATCC 46645 | broth dilution | - | - | 128 µg/mL
Nc1ncccc1-c1cc(Cc2ccc(COc3ccccn3)cc2)no1 | MIC50 | IFM 51126 | broth dilution | - | - | 0.03 µg/mL
CCC(C)CCCCCCCCCCC(=O)N[C@H]1C[C@@H](O)[C@@H](SCC(=O)OC)NC(=O)C2[C@@H](O)[C@@H](C)CN2C(=O)C(CO)NC(=O)C([C@H](O)C(SCC(=O)OC)c2ccc(O)cc2)NC(=O)NC(=O)[C@@H]2C[C@@H](O)CN2C(=O)[C@H]([C@@H](C)O)NC1=O | zone | AF-1 | agar | 5 mg/mL | - | 26 mm
COc1ccc2nc(Cl)c(C3C4=C(CCCC4=O)N(c4cccnc4)C(N)C3C#N)cc2c1 | MIC99 | MTCC 3008 | broth dilution | - | - | >1000 µg/mL
COc1ccc(C=O)cc1OCC(O)(Cn1cncn1)c1ccc(F)cc1F | MIC50 | ATCC 46645 | broth dilution | - | - | 128 µg/mL

Again, the opening 4 rows:

smiles | endpoint | strain | method | tested at | mutations | result
CC(=O)C1=NN(c2ccccc2)C2=Nc3nccc(-c4nn(-c5ccccc5)cc4-c4ccc([N+](=O)[O-])cc4)c3C(=O)C12 | zone | - | agar diffusion / agar | 1.25 mg/mL | - | 6 mm
Cc1ccc(/C=C/C(=O)OC2CCN(CC(O)(Cn3cncn3)c3ccc(F)cc3F)CC2)cc1 | MIC80 | 0504656 | broth dilution | - | - | 0.518 µM
CCC(C)CCCCCCCCCCC(=O)N[C@H]1C[C@@H](O)[C@@H]([n+]2cc[nH]c2)NC(=O)C2[C@@H](O)[C@@H](C)CN2C(=O)C(CO)NC(=O)C([C@H](O)C(O)c2ccc(O)cc2)NC(=O)NC(=O)[C@@H]2C[C@@H](O)CN2C(=O)[C@H]([C@@H](C)O)NC1=O | zone | AF-1 | agar | 5 mg/mL | - | 30 mm
CC1=CC[C@@H]2[C@H](C1)C2(C)C | MLC | F05 | - | - | - | 0.64 µg/mL